Reference: PubChem BioAssay AID504761 (Drosophila RNAi Screening Center, 2011)
The screen tested about 22,000 reagents; shown is an unselected part of those with a known target gene and a result. Over the whole deposit, 116 (0.52%) were called active. 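Calls depend on retest data that are not deposited; infection was ranked per plate without normalising between plates; the unit of the infection score is not given.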 Raw values vary from plate to plate and are shown uncorrected. Reagents against one gene are numbered here. Names joined by + are all predicted targets of the reagent. The record does not give: the amount of reagent, the time to read-out.

- Aim: 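Fly genes whose silencing reduces dengue virus type 2 infection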 (primary screen)
- Cell system: D.Mel-2 cells from Drosophila
- Reagent: long dsRNA against Drosophila genes
- Conditions: infection with dengue virus type 2; dose and infection time not stated
- Detection: 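Cells stained for dengue envelope protein and imaged; percent of infected cells per well on duplicate plates, ranked by infection, with stained nuclei counted for cell number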
- Direction: infection score: higher = more virus-infected cells; cell count: higher = more cells in the well
- Call rule: 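Very low infection ranking in both replicate wells (chance probability at most 0.065), then a retest showing infection dropped 1.5-fold or more at p below 0.05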
- Calls: active = confirmed: knock-down lowers infection; inactive = not picked or not confirmed

predicted target | reagent no. | infection score, replicate 1 | infection score, replicate 2 | cell count, replicate 1 | cell count, replicate 2 | call
CCT4 (Chaperonin containing TCP1 subunit 4) | 1 | 16.7 | 20.7 | 3173 | 3619 | inactive
CCT4 (Chaperonin containing TCP1 subunit 4) | 2 | 1.36 | – | 1103 | 514 | inactive
Tpr2 (Tetratricopeptide repeat protein 2) | 1 | 41.1 | 22.1 | 5604 | 6736 | inactive
cer (crammer) | 1 | 0.93 | 0.54 | 6122 | 6814 | inactive
CG3520 | 1 | 14.7 | 14.9 | 5822 | 6172 | inactive
CG13311 | 1 | 0.74 | 2.37 | 6595 | 5941 | inactive
Zasp67 (Z band alternatively spliced PDZ-motif protein 67) | 1 | 1.67 | 1.49 | 5985 | 5567 | inactive
Zasp67 (Z band alternatively spliced PDZ-motif protein 67) | 2 | 5.25 | 3.33 | 6396 | 6818 | inactive
CG31446 | 1 | 4.17 | 0.92 | 5949 | 5768 | inactive
CG32344 | 1 | 2.82 | 4.41 | 5495 | 6093 | inactive
Smyd4-1 (SET and MYND domain containing, class 4, member 1) | 1 | 31.4 | 25.1 | 4172 | 5838 | inactive
Smyd4-1 (SET and MYND domain containing, class 4, member 1) | 2 | 5.05 | 13.6 | 6456 | 6290 | inactive
cnc (cap-n-collar) | 1 | 15.2 | 1.65 | 3759 | 6652 | inactive
cnc (cap-n-collar) | 2 | 12.1 | 14 | 6203 | 5591 | inactive
cnc (cap-n-collar) | 3 | 7.26 | 12.2 | 6957 | 4248 | inactive
cnc (cap-n-collar) | 4 | 12.5 | 9.47 | 4856 | 5430 | inactive
frj (farjavit) | 1 | 2.68 | 2.41 | 5966 | 6307 | inactive
PIG-K (Phosphatidylinositol glycan anchor biosynthesis class K) | 1 | 2.66 | 8.89 | 5480 | 5436 | inactive
CG4763 | 1 | 2.01 | 0.28 | 6081 | 5655 | inactive
CG4763 | 2 | 4.84 | 8.34 | 6591 | 6435 | inactive
GstZ1 (Glutathione S transferase Z1) | 1 | 2.28 | 9.74 | 6921 | 7239 | inactive
CG14450 | 1 | 10.2 | 22.2 | 6264 | 5079 | inactive
CG14450 | 2 | 22 | 22 | 5009 | 4048 | inactive
lark | 1 | 2.02 | 2.69 | 4069 | 3752 | inactive
lark | 2 | 3.13 | 0.88 | 4252 | 4454 | inactive

Next part; the last 4 above are carried over.
predicted target | reagent no. | infection score, replicate 1 | infection score, replicate 2 | cell count, replicate 1 | cell count, replicate 2 | call
CG14450 | 1 | 10.2 | 22.2 | 6264 | 5079 | inactive
CG14450 | 2 | 22 | 22 | 5009 | 4048 | inactive
lark | 1 | 2.02 | 2.69 | 4069 | 3752 | inactive
lark | 2 | 3.13 | 0.88 | 4252 | 4454 | inactive
Obp99d (Odorant-binding protein 99d) | 1 | – | – | 310 | 301 | inactive
CG15536 | 1 | 1.74 | 7.34 | 6142 | 6651 | inactive
CG15536 | 2 | 1.92 | 0.9 | 6458 | 6924 | inactive
CG15536 | 3 | 0.2 | 5.91 | 490 | 2012 | inactive
CG4611 | 1 | 2.48 | 1.73 | 6119 | 6071 | inactive
CG4611 | 2 | 3.42 | 4.68 | 5821 | 5575 | inactive
lectin-29Ca | 1 | 11.1 | 1.61 | 5507 | 6847 | inactive
sens (senseless) | 1 | 4.03 | 3.46 | 4024 | 4047 | inactive
sens (senseless) | 2 | 2.15 | 6.11 | 5666 | 6565 | inactive
Tsp3A (Tetraspanin 3A) | 1 | – | 2.64 | 281 | 2385 | inactive
Tsp3A (Tetraspanin 3A) | 2 | 4.52 | 13.1 | 6464 | 6438 | inactive
CG33937 (retired record) | 1 | 2.85 | 5.58 | 6570 | 7022 | inactive
MESK2 + CG10494 | 1 | 18 | 8.73 | 5575 | 5839 | inactive
CG15916 | 1 | 18.4 | 5 | 5970 | 6637 | inactive
